Measured values taken from patent US20220089698A1, “ANTIBODIES THAT TARGET HIV GP120 AND METHODS OF USE” (published 2022).
Like-named read-outs stand apart in the source and are kept apart here.

B1: 1.1.54-1 (antibody, human IgG1, kappa)
heavy: QVQLLQSGAAVTKPGASVRVSCEASGYNIRDYFIHWWRQAPGQGLQWVGWINPKTGQPNNPRQFQGRVSLTRHASWDFDTFSFYMDLKALRSDDTAVYFCARQRSDYWDFDVWGSGTQVTVSSASTKGPSVFPLAPSSKSTSGGTAALGCLVKDYFPEPVTVSWNSGALTSGVHTFPAVLQSSGLYSLSSVVTVPSSSLGTQTYICNVNHKPSNTKVDKKVEPKSCDKTHTCPPCPAPELLAGPDVFLFPPKPKDTLMISRTPEVTCVVVDVSHEDPEVKFNWYVDGVEVHNAKTKPREEQYNSTYRVVSVLTVLHQDWLNGKEYKCKVSNKALPLPEEKTISKAKGQPREPQVYTLPPSREEMTKNQVSLTCLVKGFYPSDIAVEWESNGQPENNYKTTPPVLDSDGSFFLYSKLTVDKSRWQQGNVFSCSVLHEALHSHYTQKSLSLSPGK
light: not shown
B2: 1.1.90-1 (antibody, human IgG1, kappa, V domains shown)
VH: QVQLLQSGAAVTKPGASVRVSCEASGYNIRDYFIHWWRQAPGQGLQWVGWINPKTGQPNNPRQFQGRVSLTRHASWDFDTFSFYMDLKALRSDDTAVYFCARQRSDYWDFDVWGSGTQVTVSS
VL: DIQMTQSPSSLSASVGDRATITCQANGYLNWYQQRRGKAPKLLIYDGSKLERGVPSRFSGSRWGQEYNLTISSLQPEDIATYFCQVYEFFGPGTRLDLKR

Assays:
Assay in all cases: cell-based or functional assay
[1] = target: HIV-1 envelope glycoprotein (gp120) of virus 7141 (HIV-1)
[2] = target: HIV-1 envelope glycoprotein (gp120) of virus 92US727 (HIV-1)
[3] = target: HIV-1 envelope glycoprotein (gp120) of virus 92US712 (HIV-1)
[4] = target: HIV-1 envelope glycoprotein (gp120) of virus VS001 (HIV-1)
[5] = target: HIV-1 envelope glycoprotein (gp120) of virus THRO (HIV-1)
[6] = target: HIV-1 envelope glycoprotein (gp120) of virus 7015 (HIV-1)
[7] = target: HIV-1 envelope glycoprotein (gp120) of virus 7141 (HIV-1); remark: listed apart in the source
[8] = target: HIV-1 envelope glycoprotein (gp120) of virus 8318 (HIV-1)
[9] = target: HIV-1 envelope glycoprotein (gp120) of virus 92HT593 (HIV-1)
[10] = target: HIV-1 envelope glycoprotein (gp120) of virus 8320 (HIV-1)
[11] = target: HIV-1 envelope glycoprotein (gp120) of virus 92US657 (HIV-1)
[12] = target: HIV-1 envelope glycoprotein (gp120) of virus 7007 (HIV-1)
[13] = target: HIV-1 envelope glycoprotein (gp120) of virus 8398 (HIV-1)
[14] = target: HIV-1 envelope glycoprotein (gp120) of virus RHPA (HIV-1)
[15] = target: HIV-1 envelope glycoprotein (gp120) of virus 7576 (HIV-1)
[16] = target: HIV-1 envelope glycoprotein (gp120) of virus 1413 (HIV-1)
[17] = target: HIV-1 envelope glycoprotein (gp120) of virus 8339 (HIV-1)
[18] = target: HIV-1 envelope glycoprotein (gp120) of virus 92US727 (HIV-1); remark: listed apart in the source
[19] = target: HIV-1 envelope glycoprotein (gp120) of virus CH040 (HIV-1)
[20] = target: HIV-1 envelope glycoprotein (gp120) of virus CH106 (HIV-1)
[21] = target: HIV-1 envelope glycoprotein (gp120) of virus 7552 (HIV-1)
[22] = target: HIV-1 envelope glycoprotein (gp120) of virus 7051 (HIV-1)
[23] = target: HIV-1 envelope glycoprotein (gp120) of virus 7595 (HIV-1)

Row | Binder | Neutralization IC50 [1] [µg/mL] | Neutralization IC50 [2] [µg/mL] | Neutralization IC50 [3] [µg/mL] | Neutralization IC50 [4] [µg/mL] | Neutralization IC50 [5] [µg/mL] | Neutralization IC50 [6] [µg/mL] | Neutralization IC50 [7] [µg/mL] | Neutralization IC50 [8] [µg/mL] | Neutralization IC50 [9] [µg/mL] | Neutralization IC50 [10] [µg/mL] | Neutralization IC50 [11] [µg/mL] | Neutralization IC50 [12] [µg/mL] | Neutralization IC50 [13] [µg/mL] | Neutralization IC50 [14] [µg/mL] | Neutralization IC50 [15] [µg/mL] | Neutralization IC50 [16] [µg/mL] | Neutralization IC50 [17] [µg/mL] | Neutralization IC50 [18] [µg/mL] | Neutralization IC50 [19] [µg/mL] | Neutralization IC50 [20] [µg/mL] | further results
1 | B1 | 7.08 | > 50 | 0.16 | 0.32 | 5.47 | 0.4 | 1.61 | 0.32 | 0.26 | 0.29 | 0.45 | > 50 | > 50 | 0.03 | 0.48 | 1.72 | > 50 | 11.2 | > 50 | 0.9 | Neutralization IC50 [21]: 6.22 µg/mL; Neutralization IC50 [22]: 0.23 µg/mL; Neutralization IC50 [23]: 1.62 µg/mL
2 | B2 | 2.65 | 8.72 | 0.12 | 0.2 | 10.6 | 0.41 | 2.24 | 0.57 | 0.39 | 0.34 | 0.48 | > 50 | > 50 | 0.15 | 0.41 | 1.94 | > 50 | 2.17 | 22.1 | 1 | Neutralization IC50 [21]: 27.8 µg/mL; Neutralization IC50 [22]: 0.44 µg/mL; Neutralization IC50 [23]: 1.76 µg/mL
